Consider 1 molecule from patent US20070142318A1, “Compositions, methods and kits for repressing virulence in gram positive bacteria” (priority 2004, published 2007).

Like-named read-outs stand apart in the source and are kept apart here. A value given as a limit tells only on which side of the number the result lay.

One experiment deals with dpp-lacZ. Kind of experiment: dpp-lacZ expression in vivo (β-galactosidase).
Another experiment has as its target dpp promoter region. Kind of experiment: Gel mobility shift assay of CodY binding to the dpp promoter region. The note with it: CodY concentration that shifted 50% of the DNA.

B1: A207V (protein, UniProt P39779 2-259, looked up, variant A207V)
Global transcriptional …: ALLQKTRIINSMLQAAAGKPVNFKEMAETLRDVIDSNIFVVSRRGKLLGYSINQQIENDRMKKMLEDRQFPEEYTKNLFNVPETSSNLDINSEYTAFPVENRDLFQAGLTTIVPIIGGGERLGTLILSRLQDQFNDDDLILAEYGATVVGMEILREKAEEIEEEARSKAVVQMAISSLSYSELEAIEHIFEELDGNEGLLVASKIVDRVGITRSVIVNALRKLESAGVIESRSLGMKGTYIKVLNNKFLIELENLKSH
For B1, the “derepression in vivo” value in the experiment on dpp-lacZ is given as “severe derepression”. Also, the “β-galactosidase expression (Miller units) in mid-exponential cells” value with dpp-lacZ (dpp-lacZ, mid-exponential cells) is 116 Miller units. Besides, the Kd (as a rule, the constant that tells how readily two partners part at equilibrium) on dpp promoter region (read-out: Estimated KD (nM), +GTP, ILV, GTP (2 mM) and isoleucine, valine and leucine (10 mM each)) was above 500 nM; at dpp promoter region (read-out: Estimated KD (nM), No effectors), above 500 nM.
